Measured values published in PMC7277663.

Each sequence was assayed on MucR (assay: EMSA). Settings: 6.25 mM Mg2+; 25 mM HEPES pH 7.9, 50 mM KCl, 6.25 mM MgCl2, 5% glycerol; […]) or 0.4-1.6 ug ([…], room temperature; recombinant protein.

Row | Sequence | binding result
1 | ACTACCCAATAATGACCGATATCGCTGATCTATAATTAAGGCTATCATAATAATCGTCCA (double strand) [vir60.2] | binds
2 | CACACAATATATAGCCCCCT (double strand) [vp1] | binds
3 | CATTCACACAATATATAGCCCCCTCACAAGCATATTTGTCCATATATCGGCTTAAACAAC (double strand) [vir60.1] | binds

The exact form of at least one protein or probe is not confirmed.
